From patent US6746623B2, “Alkyl glycidyl ether-capped diamine foam controlling agent” (Air Products and Chemicals, Inc., priority 2002, dated 2004)

Tested on: biomass seed from an Easton Pa. wastewater treatment plant
Test: Carbonaceous Biological Oxygen Demand (CBOD) biodegradation test at 28 days
Details: CBOD/COD x 100, 28 days

| Structure (SMILES) | Percent Biodegradation at 28 days, Trial 1 | Percent Biodegradation at 28 days, Trial 2 |
| --- | --- | --- |
| CCCCOCC(O)CNCCN (racemic) [EDA/1 BGE] | 0% | 66% |
| CCCCOCC(O)CNCCCCCCN (racemic) [HDA/1 BGE] | 65% | 38% |
| CCCCOCC(O)CN(CCN(CC(O)COCCCC)CC(O)COCCCC)CCN(CC(O)COCCCC)CC(O)COCCCC (centres unmarked) [DETA/5 BGE, reference compound] | 0% | 0% |
| CCCCOCC(O)CNCCN(CC(O)COCCCC)CC(O)COCCCC (centres unmarked) [EDA/3 BGE] | 0% | 50% |
| CCCCOCC(O)CN(CCN(CC(O)COCCCC)CC(O)COCCCC)CC(O)COCCCC (centres unmarked) [EDA/4 BGE] | 0% | 67% |
| CCCCOCC(O)CNCCCCCCN(CC(O)COCCCC)CC(O)COCCCC (centres unmarked) [HDA/3 BGE] | 0% | 100% |
| CCCCOCC(O)CN(CCCCCCN(CC(O)COCCCC)CC(O)COCCCC)CC(O)COCCCC (centres unmarked) [HDA/4 BGE] | 0% | 0% |
